Compound potency records, mixed from different reports. Data source: NIAID ChemDB in PubChem.

All rows: whole-cell or culture tests; agent: Cryptococcus neoformans

a–b is a range or a potency band.

SMILES	read by	read-out	strain or isolate	value
CC(C)c1nc([N+]#N)c(C(=O)N2CCCC2)[nH]1		MIC	L29	100 µg/mL
O=c1c(O)c(-c2ccc(O)c(O)c2)oc2cc(O)cc(O)c12	broth dilution	MIC	ATCC 208821	100 µg/mL
CC(C)(C)C1CCC(CN2C3=NC[C@H](C4CCCCC4)N3C[C@@H]2C2CCCCC2)CC1		EC50	ATCC 32045	3.3 µg/mL
Cc1cc(C)c(C(=O)/C=C/c2cc3ccccc3nc2Cl)o1		MIC	ATCC 32264	>50 µg/mL
O=[N+]([O-])c1cccc2c1CCc1[se]nnc1-2		MIC		25 µg/mL
CCCCCOc1ccc(-c2cc(-c3ccc(C(=O)N[C@H]4C[C@@H](O)[C@@H](O)NC(=O)[C@@H]5[C@@H](O)[C@@H](C)CN5C(=O)[C@H]([C@H](O)CC(N)=O)NC(=O)[C@H]([C@H](O)[C@@H](O)c5ccc(O)c(OS(=O)(=O)O)c5)NC(=O)[C@@H]5C[C@@H](O)CN5C(=O)[C@H]([C@@H](C)O)NC4=O)cc3)no2)cc1		MIC50		>8 µg/mL
C[C@@H]1CC[C@@]2(OC1)O[C@H]1C[C@H]3[C@@H]4CC=C5C[C@@H](O[C@@H]6O[C@H](CO)[C@H](O[C@@H]7O[C@@H](C)[C@H](O)[C@@H](O)[C@H]7O)[C@@H](O)[C@H]6O[C@@H]6O[C@@H](C)[C@H](O)[C@@H](O)[C@H]6O)CC[C@]5(C)[C@H]4CC[C@]3(C)[C@H]1[C@@H]2C		MFC		≥20 µg/mL
COc1ccc(OC)c(C(=O)/C=C/c2cc3cc(OC)c(OC)cc3nc2Cl)c1		MIC	ATCC 32264	>50 µg/mL
C1CCC([C@H]2CN=C3N2C[C@@H](C2CCCCC2)N3CCC23CC4CC(CC(C4)C2)C3)CC1		EC50	ATCC 32045	2.5 µg/mL
Cc1ccc(-c2nc([N+]#N)c(C(=O)N3CCCC3)[nH]2)cc1		MIC	L29	50 µg/mL
COC(=O)Nc1nc2ccccc2[nH]1		EC90	ATCC 14116	2.3 µg/mL
c1ccc(-c2c(C(c3ccccc3)n3ccnc3)cnn2-c2ccccc2)cc1		MBC		22 µM
COc1ccc(OC)c2c1CCc1[se]nnc1-2		MIC		12.5 µg/mL
N=C(N)c1ccc2c(c1)[nH]c1cc(C(=N)N)ccc12		MFC	H99	50 µg/mL
C=C1CC[C@@]2(OC1)O[C@H]1C[C@H]3[C@@H]4CC=C5C[C@@H](O)[C@H](O)[C@@H](O[C@@H]6O[C@H](CO)[C@H](O)[C@H](O)[C@H]6O)[C@]5(C)[C@H]4CC[C@]3(C)[C@H]1[C@@H]2C		MIC		≥20 µg/mL
Cc1noc(NS(=O)(=O)c2ccc(N)cc2)c1C		MIC		0.31–320 µg/mL
CCN1C2=NC[C@H](Cc3ccccc3)N2C[C@@H]1C1CCCCC1		MIC	ATCC 32045	>25 µg/mL
O=C(/C=C/c1ccco1)c1ccc(Cl)cc1Cl		MIC	ATCC 32264	>50 µg/mL
C[C@@]12CCC[C@]3(C)C4=CC(=O)OC[C@]45O[C@@H]5C(OC1=O)[C@@H]23		MIC	ATCC90112	16 µg/mL
C[C@@H]1O[C@@H](Oc2c(-c3ccc(O)c(O)c3)oc3cc(O)cc(O)c3c2=O)[C@H](O)[C@H](O)[C@H]1O	broth dilution	MIC	ATCC 208821	100 µg/mL
CCN(CC)CCCC(C)Nc1ccnc2cc(Cl)ccc12		MIC50		0.031–32 µg/mL
Clc1ccc(-c2c(C(c3ccccc3)n3ccnc3)cnn2-c2ccc(Cl)cc2Cl)cc1		MIC		11.1 µM
CCCCNC(=O)n1c(NC(=O)OC)nc2ccccc21		EC50	IU4	2.3 µg/mL
CCN1C2=NC[C@H](CC3CCCCC3)N2C[C@@H]1Cc1ccccc1		EC50	ATCC 32045	45.2 µg/mL
COc1ccc(/C=C/C(=O)c2ccccc2)cc1		MIC	ATCC 32264	>50 µg/mL
CN(C/C=C/C#CC(C)(C)C)Cc1cccc2ccccc12	broth dilution	MIC80	ATCC	13.7 µM
N#CC(C#N)C(CC(=O)c1ccccc1)c1cc2ccccc2nc1Cl		MIC	ATCC 32264	>50 µg/mL
CC(C)(C)C1CCC(CN2C3=NC[C@@H](CC4CCCCC4)N3C[C@@H]2C2CCCCC2)CC1		MIC	ATCC 32045	8–16 µg/mL
COc1ccc(/C=C/C(=O)c2ccccc2)c(OC)c1		MIC	ATCC 32264	>50 µg/mL
Nc1[nH]c(=O)ncc1F		MIC90		2–8 µg/mL
Cc1nn([C@H](C)[C@](O)(Cn2cncn2)c2ccc(F)cc2F)c2ccc(F)cc12		MIC90	ATCC 4065	1 µg/mL
CC(C)(C)[C@](O)(COc1ccc(Cl)cc1)Cn1cncn1		MLC50		>0.08 µg/mL
C=CCc1ccc(O)c(-c2cc(CC=C)ccc2O)c1		MIC	KCTC 7224	>200 µg/mL
Cc1cc(NS(=O)(=O)c2ccc(N)cc2)no1		MIC50		80 µg/mL
COc1cc(O)c2c(c1)OC(c1ccc(O)cc1)CC2=O	broth dilution	MIC	JEC21	80 µg/mL
CCc1nc(N)nc(N)c1-c1ccc(Cl)cc1		MIC50		0.002–2 µg/mL
O=C(/C=C/c1ccc(Cl)cc1Cl)c1ccccc1		MIC	ATCC 32264	>50 µg/mL
OC(Cn1cncn1)(Cn1cncn1)c1ccc(F)cc1F		MIC	H99	6.25 µg/mL
CO[C@H]1OC(=O)C[C@@]2(O)[C@@]13O[C@@H]3C1OC(=O)[C@@]3(C)CCC[C@@]2(C)[C@@H]13		MIC	ATCC90112	>64 µg/mL
Clc1ccc(-n2ncc(C(c3ccccc3)n3ccnc3)c2-c2ccccc2Cl)c(Cl)c1		MIC		≥11.1 µM
C[C@@H](c1nc(-c2ccc(C#N)cc2)cs1)[C@](O)(Cn1cncn1)c1cc(F)ccc1F		MIC50		0.004–0.03 µg/mL
C=C(CCC1(O)O[C@H]2C[C@H]3[C@@H]4CC=C5C[C@@H](O)[C@H](O)[C@@H](O[C@@H]6O[C@H](CO)[C@H](O)[C@H](O)[C@H]6O)[C@]5(C)[C@H]4CC[C@]3(C)[C@H]2[C@@H]1C)CO[C@@H]1O[C@H](CO)[C@@H](O)[C@H](O)[C@H]1O		MIC		5 µg/mL
Clc1ccc(-n2ncc(C(c3ccccc3)n3ccnc3)c2-c2ccccc2)c(Cl)c1		MIC		33.3 µM
c1ccc2[nH]c(-c3cscn3)nc2c1		EC50	IU8698	<4 µg/mL
C[C@@H]1C=C2C3CCC4[C@@]5(C)CC[C@@H](O)C(C)(C)C5CC[C@@]4(C)[C@]3(C)CC[C@@]2(C(=O)O)CC1	broth dilution	MIC	ATCC 208821	>200 µg/mL
O=[N+]([O-])c1ccc2c(c1)CCc1snnc1-2		MIC		12.5 µg/mL
[Cl-].[Li+]		MIC	H99 ΔFRR1 mutant	>42 µg/mL
C1CCC(C[C@@H]2CN=C3N2C[C@H](C2CCCCC2)N3CCC23CC4CC(CC(C4)C2)C3)CC1		EC50	ATCC 32045	2.1 µg/mL
N#[N+]c1nc(-c2ccccc2Cl)[nH]c1C(=O)N1CCCC1		MIC	L29	50 µg/mL
C1CCC(C[C@H]2CN3C(=NC[C@H]3CC3CCCCC3)N2CCC23CC4CC(CC(C4)C2)C3)CC1		EC50	ATCC 32045	2.7 µg/mL
N#[N+]c1nc(-c2cccc(F)c2)[nH]c1C(=O)N1CCCC1		MIC	L29	100 µg/mL
CCC(C)CC(C)CCCCCCCCC(=O)N[C@H]1C[C@@H](O)[C@H](NCCN)NC(=O)[C@@H]2[C@@H](O)CCN2C(=O)[C@H]([C@H](O)CCN)NC(=O)[C@H]([C@H](O)[C@@H](O)c2ccc(O)cc2)NC(=O)[C@@H]2C[C@@H](O)CN2C(=O)[C@H]([C@@H](C)O)NC1=O		MIC50		8–16 µg/mL
COC(=O)[C@]12CCC(C)(C)C=C1C1CCC3[C@@]4(C)CCC(=O)C(C)(C)C4CC[C@@]3(C)[C@]1(C)CC2	broth dilution	MIC	ATCC 208821	50 µg/mL
N#[N+]c1nc(-c2ccc(F)cc2)[nH]c1C(=O)N1CCCC1		MIC	L29	10 µg/mL
C=C(Cl)/C=C/[C@H](O)CC(=C)C[C@H]1OC2[C@@H](O)[C@]3(O)C[C@@H](O)[C@H](C)[C@H](CCC/C=C\[C@@H]4C[C@@H](O)C[C@]5(C[C@H](OC)CC(CC(=O)[C@@H](C)[C@H](OC(C)=O)[C@@H](C)C(=C)C[C@@H]6C[C@@](C)(O)C[C@]7(C[C@H](OC(C)=O)CC(CC(=O)O[C@@H]([C@@H]1O)[C@H]2C)O7)O6)O5)O4)O3		MFC	ATCC66031	1.56 µg/mL
C[C@@H]1CC[C@@]2(OC1)O[C@H]1C[C@H]3[C@@H]4CC=C5C[C@@H](O)[C@H](O)[C@@H](O[C@@H]6OC[C@@H](O)[C@H](O)[C@H]6O)[C@]5(C)[C@H]4CC[C@]3(C)[C@@]1(O)[C@@H]2C		MFC		≥20 µg/mL
CCC(C)CC(C)CCCCCCCCC(=O)N[C@H]1C[C@@H](O)[C@H](NCCN)NC(=O)[C@@H]2[C@@H](O)CCN2C(=O)[C@H]([C@H](O)CCN)NC(=O)[C@H]([C@H](O)[C@@H](O)c2ccc(O)cc2)NC(=O)[C@@H]2C[C@@H](O)CN2C(=O)[C@H]([C@@H](C)O)NC1=O		MIC	H99 ΔFRR1 mutant	25 µg/mL
N=C(N)c1ccc(OCCCCCOc2ccc(C(=N)N)cc2)cc1		MIC50		0.031–32 µg/mL

Repeating the first 7 entries:

SMILES	read by	read-out	strain or isolate	value
CC(C)c1nc([N+]#N)c(C(=O)N2CCCC2)[nH]1		MIC	L29	100 µg/mL
O=c1c(O)c(-c2ccc(O)c(O)c2)oc2cc(O)cc(O)c12	broth dilution	MIC	ATCC 208821	100 µg/mL
CC(C)(C)C1CCC(CN2C3=NC[C@H](C4CCCCC4)N3C[C@@H]2C2CCCCC2)CC1		EC50	ATCC 32045	3.3 µg/mL
Cc1cc(C)c(C(=O)/C=C/c2cc3ccccc3nc2Cl)o1		MIC	ATCC 32264	>50 µg/mL
O=[N+]([O-])c1cccc2c1CCc1[se]nnc1-2		MIC		25 µg/mL
CCCCCOc1ccc(-c2cc(-c3ccc(C(=O)N[C@H]4C[C@@H](O)[C@@H](O)NC(=O)[C@@H]5[C@@H](O)[C@@H](C)CN5C(=O)[C@H]([C@H](O)CC(N)=O)NC(=O)[C@H]([C@H](O)[C@@H](O)c5ccc(O)c(OS(=O)(=O)O)c5)NC(=O)[C@@H]5C[C@@H](O)CN5C(=O)[C@H]([C@@H](C)O)NC4=O)cc3)no2)cc1		MIC50		>8 µg/mL
C[C@@H]1CC[C@@]2(OC1)O[C@H]1C[C@H]3[C@@H]4CC=C5C[C@@H](O[C@@H]6O[C@H](CO)[C@H](O[C@@H]7O[C@@H](C)[C@H](O)[C@@H](O)[C@H]7O)[C@@H](O)[C@H]6O[C@@H]6O[C@@H](C)[C@H](O)[C@@H](O)[C@H]6O)CC[C@]5(C)[C@H]4CC[C@]3(C)[C@H]1[C@@H]2C		MFC		≥20 µg/mL

MIC50, MIC90 and the like: level of inhibition, or share of isolates inhibited. Conditions beyond the fields shown may differ between rows. Blank or dashed fields: not listed here. ECn is the concentration giving n% inhibition of infection, replication or growth.